A mixed list of measured activities; the numbers were collected in NIAID ChemDB.

Common to all: growth or infection tests; agent: Candida albicans; endpoint: MIC

Neighbouring rows are from separate reports. Two numbers with a dash give a range or band.

smiles,strain or isolate,value
CSc1nnc(-c2ccccc2[N+](=O)[O-])s1,ATCC 10231,>100 µg/mL
COC(=O)C[C@H]1C(=O)C=C[C@@H]2[C@]1(C)CCC[C@]2(C)C(=O)OC,CECT 1394,>100 µg/mL
Cc1ccc(C(C)C)cc1,M1,5–10 µg/mL
C[C@@H](CC1COC(/C=C/C=C/c2ccc(C#N)cc2F)OC1)[C@](O)(Cn1cncn1)c1ccc(F)cc1F,ATCC64550,0.5–1 µg/mL
O=C(c1ccc(Cl)cc1)c1oc2ccc(Cl)cc2c1Cn1ccnc1,NRRL Y-27077,25 µg/mL
CCC/C=C/C=C/C=C/C(=O)OCC1O[C@@H](OC2C(CO)O[C@]3(OCc4cc(O)cc(O)c43)[C@H](O)[C@H]2OC(=O)/C=C/C=C/CC(O)/C=C/C=C/C=C/CCC)[C@H](O)[C@@H](O)[C@H]1O,83-2-14,0.1 µg/mL
C[C@@H](SC1COC(/C=C/C=C/c2ccc(C#N)cc2)OC1)[C@](O)(Cn1cncn1)c1ccc(F)cc1F,ATCC64550,0.5 µg/mL
O/N=C(\c1ccccc1)c1oc2ccc(Cl)cc2c1Cn1ccnc1,Clinical isolate,25 µg/mL
C[C@H]1[C@H](O)[C@@H](C)/C=C/C=C/C=C/C=C/C=C/C=C/C=C/[C@H](O[C@@H]2O[C@H](C)[C@@H](O)[C@H](N)[C@@H]2O)C[C@@H]2O[C@](O)(C[C@@H](O)C[C@@H](O)CC[C@H](O)[C@@H](O)C[C@@H](O)CC(=O)O[C@H]1C)C[C@H](O)[C@H]2C(=O)O,1208E,0.008 µg/mL
CCC(C)CC(C)CCCCCCCCC(=O)NC1C[C@H](O)[C@@H](O)NC(=O)[C@@H]2[C@@H](O)[C@@H](C)CN2C(=O)[C@H]([C@H](O)CC(N)=O)NC(=O)[C@H](C(O)[C@H](O)c2ccc(O)cc2)NC(=O)[C@@H]2C[C@@H](O)CN2C(=O)[C@H]([C@@H](C)O)NC1=O,MY1028,1 µg/mL
CCC(C)CC(C)CCCCCCCCC(=O)N[C@H]1C[C@@H](O)[C@H](NCCN)NC(=O)[C@@H]2[C@@H](O)CCN2C(=O)[C@H]([C@H](O)CCN)NC(=O)[C@H]([C@H](O)[C@@H](O)c2ccc(O)cc2)NC(=O)[C@@H]2C[C@@H](O)CN2C(=O)[C@H]([C@@H](C)O)NC1=O,MY1055,0.25 µg/mL
CCCCCOc1ccc(-c2ccc(-c3ccc(C(=O)N[C@H]4CCCNC(=O)C5C[C@H](NC(=O)c6cn[nH]c6)CN5C(=O)C(C(C)O)NC(=O)C(CCc5ccc(O)cc5)NC(=O)C5C[C@@H](O)CN5C(=O)C(C(C)O)NC4=O)cc3)cc2)cc1,ATCC 10231,0.2 µg/mL
CNc1ccc(C(=O)CC(O)CCC(C)C2OC(=O)CC(O)CC(=O)CC(O)CC(O)CC(O)CC(O)CC3(O)CC(O)C(C(=O)N4CCN(C)CC4)C(CC(O[C@@H]4O[C@H](C)[C@@H](O)[C@H](NC(=O)CN(C)C)[C@@H]4O)/C=C/C=C/C=C/C=C\C=C/C=C/C=C/C2C)O3)cc1,200,0.06 µg/mL
CCC(C)n1ncn(-c2ccc(N3CCN(c4ccc(OC[C@H]5CO[C@](Cn6cncn6)(c6ccc(Cl)cc6Cl)O5)cc4)CC3)cc2)c1=O,FR2,0.004 µg/mL
CC[N+]([O-])(CC)CCCC(C)CCCC(C)CCCCC(C)CCCC(C)CCC[N+]([O-])(CC)CC,S124,>200 µg/mL
CCCCCCCCN[C@H]1C[C@H]2C(=O)NCCC[C@H](NC(=O)c3ccc(-c4ccc(-c5ccc(OCCCCC)cc5)cc4)cc3)C(=O)N[C@@H]([C@@H](C)O)C(=O)N3C[C@H](O)C[C@H]3C(=O)N[C@@H](CCc3ccc(O)cc3)C(=O)N[C@@H]([C@@H](C)O)C(=O)N2C1,ATCC CCH442,12.5 µg/mL
CC[C@@H]([C@H](C)O)n1ncn(-c2ccc(N3CCN(c4ccc(OC[C@@H]5CO[C@@](Cn6cncn6)(c6ccc(F)cc6F)C5)cc4)CC3)cc2)c1=O,Isolate CA-10,>4 µg/mL
CCN(CC)CCCC(C)=CCC/C(C)=C/CCC=C(C)CC/C=C(\C)CCC=C(C)C,S124,100 µg/mL
CCCCCOc1ccc(-c2ccc(-c3ccc(C(=O)N[C@H]4CCCNC(=O)C5C[C@H](N)CN5C(=O)C(C(C)C)NC(=O)C(CCc5ccc(O)cc5)NC(=O)C5C[C@@H](O)CN5C(=O)C(C(C)O)NC4=O)cc3)cc2)cc1,ATCC 62376,50 µg/mL
CCc1ccc2c(C)c(C(=O)c3ccc(Cl)cc3)oc2c1,Clinical isolate,50 µg/mL
C[C@H]1[C@H](O)[C@@H](C)/C=C/C=C/C=C/C=C/C=C/C=C/C=C/[C@H](O[C@@H]2O[C@H](C)[C@@H](O)[C@H](N)[C@@H]2O)C[C@@H]2O[C@](O)(C[C@@H](O)C[C@@H](O)CC[C@H](O)[C@@H](O)C[C@@H](O)CC(=O)O[C@H]1C)C[C@H](O)[C@H]2C(=O)O,73,0.24 µg/mL
CC[N+]([O-])(CC)CCCC(C)=CCC/C(C)=C/CCC=C(C)CC/C=C(\C)CCC=C(C)C,S124,200 µg/mL
O=C(Nc1cccc([N+](=O)[O-])c1)c1ccccc1O,ATCC 44859,>125 µM
CCCCCCCCOc1ccc(C(=O)NC2C[C@@H](O)[C@@H](O)NC(=O)C3[C@@H](O)[C@@H](C)CN3C(=O)C(C(C)O)NC(=O)C([C@H](O)[C@@H](O)c3ccc(O)cc3)NC(=O)C3C[C@@H](O)CN3C(=O)C(C(C)O)NC2=O)cc1,MY1208,0.5 µg/mL
COC(=O)[C@@]1(C)CCC[C@]2(C)C3CC(=O)O[C@@]3(C)C=C[C@@H]12,CECT 1394,>100 µg/mL
CCCCCCCCOc1ccc(-c2ccc(-c3ccc(CN[C@H]4CCCNC(=O)C5C[C@H](N)CN5C(=O)C(C(C)O)NC(=O)C(CCc5ccc(O)cc5)NC(=O)C5C[C@@H](O)CN5C(=O)C(C(C)O)NC4=O)cc3)cc2)cc1,ATCC CCH442,0.39 µg/mL
Nc1nnc2c(cnc3ccccc32)n1,VM-71,30 µg/mL
CC(C)CCCC(C)CCCC(C)CCCCC(C)CCCC(C)CCC[N+](C)(C)[O-],S124,>200 µg/mL
CCCCCOc1ccc(-c2ccc(-c3ccc(C(=O)N[C@H]4CCCNC(=O)C5C[C@H](F)N5C(=O)C(C(C)O)NC(=O)C(CCc5ccc(O)cc5)NC(=O)C5C[C@@H](O)CN5C(=O)C(C(C)O)NC4=O)cc3)cc2)cc1,ATCC 62376,0.39 µg/mL
CNc1ccc(C(=O)CC(O)CCC(C)C2OC(=O)CC(O)CC(=O)CC(O)CC(O)CC(O)CC(O)CC3(O)CC(O)C(C(=O)NCCN(C)C)C(CC(O[C@@H]4O[C@H](C)[C@@H](O)[C@H](NC(=O)CN(C)C)[C@@H]4O)/C=C/C=C/C=C/C=C\C=C/C=C/C=C/C2C)O3)cc1,73,0.06 µg/mL
C=C1CC[C@@H]2[C@](C)(CCC[C@]2(C)C(=O)OC)[C@H]1CC(=O)OC,CECT 1394,>100 µg/mL
Cc1c(C(=O)c2ccc(Cl)cc2)oc2ccccc12,NRRL Y-27077,25 µg/mL
OCCNc1nnc2c(cnc3ccccc32)n1,VM-81,50 µg/mL
CCS(=O)(=O)c1nnc(-c2ccccc2[N+](=O)[O-])s1,ATCC 10231,50 µg/mL
O/N=C(\c1ccc(Cl)cc1)c1oc2ccccc2c1Cn1ccnc1,NRRL Y-27077,25 µg/mL
CC(C)CCCC(C)CCCC(C)CCCCC(C)CCCC(C)CCCN(C)C,S9,>200 µg/mL
CS(=O)(=O)c1nnc(Cc2cc([N+](=O)[O-])ccc2-c2ncc[nH]2)s1,ATCC 10231,0.39 µg/mL
C[C@H]1[C@H](O)[C@@H](C)/C=C/C=C/C=C/C=C/C=C/C=C/C=C/[C@H](O[C@@H]2O[C@H](C)[C@@H](O)[C@H](N)[C@@H]2O)C[C@@H]2O[C@](O)(C[C@@H](O)C[C@@H](O)CC[C@H](O)[C@@H](O)C[C@@H](O)CC(=O)O[C@H]1C)C[C@H](O)[C@H]2C(=O)O,R89-335,1 µg/mL
CNc1ccc(C(=O)CC(O)CCC(C)C2OC(=O)CC(O)CC(=O)CC(O)CC(O)CC(O)CC(O)CC3(O)CC(O)C(C(=O)N4CCN(CCO)CC4)C(CC(O[C@@H]4O[C@H](C)[C@@H](O)[C@H](NC(=O)CN5CCN(C)CC5)[C@@H]4O)/C=C/C=C/C=C/C=C\C=C/C=C/C=C/C2C)O3)cc1,73,0.06 µg/mL
Cc1ccc2c(c1)c1nnc(N3CCN(C)CC3)nc1n2C,1208E,4 µg/mL
CCSc1nnc(-c2cc([N+](=O)[O-])ccc2-c2ccco2)s1,ATCC 10231,>100 µg/mL
O=C(Nc1ccc([N+](=O)[O-])cc1)c1ncccc1O,ATCC 44859,>250 µM
CCCCCOc1ccc(-c2ccc(-c3ccc(C(=O)N[C@H]4CCCNC(=O)[C@@H]5C[C@H](N)CN5C(=O)[C@H]([C@@H](C)O)NC(=O)[C@H](Cc5ccc(O)cc5)NC(=O)[C@@H]5C[C@@H](O)CN5C(=O)[C@H]([C@@H](C)O)NC4=O)cc3)cc2)cc1,ATCC 10231,0.2 µg/mL
O=C(Nc1cccc(F)c1)c1ccccc1O,ATCC 44859,62.5 µM
CCC(C)n1ncn(-c2ccc(N3CCN(c4ccc(OC[C@H]5CO[C@](Cn6cncn6)(c6ccc(Cl)cc6Cl)O5)cc4)CC3)cc2)c1=O,Isolate CA-4,>8 µg/mL
COC(=O)[C@@]1(C)CCC[C@]2(C)C3CC(=O)OCC3C=C[C@@H]12,CECT 1394,25–50 µg/mL
CCCCCCCCOc1ccc(N2CCN(c3ccc(C(=O)N[C@H]4CCCNC(=O)C5C[C@H](N)CN5C(=O)C(C(C)O)NC(=O)C(Cc5ccc(C)cc5)NC(=O)C5CCCN5C(=O)C(C(C)O)NC4=O)cc3)CC2)cc1,ATCC 10231,3.12 µg/mL
C[C@@]12CCC[C@]3(C)C4=CC(=O)OC[C@]45O[C@@H]5C(OC1=O)[C@@H]23,CECT 1394,32 µg/mL
CCCCCCCCOc1ccc(N2CCN(c3ccc(C(=O)N[C@H]4CCCNC(=O)C5C[C@H](N)CN5C(=O)C(C(C)O)NC(=O)[C@@H](OCc5ccccc5)NC(=O)C5C[C@@H](O)CN5C(=O)C(C(C)O)NC4=O)cc3)CC2)cc1,ATCC 62376,>100 µg/mL
O=C(Nc1ccccc1)c1ccccc1O,ATCC 44859,125 µM

For reference, 4 entries again:

| smiles | strain or isolate | value |
|---|---|---|
| O=C(Nc1cccc([N+](=O)[O-])c1)c1ccccc1O | ATCC 44859 | >125 µM |
| O/N=C(\c1ccc(Cl)cc1)c1oc2ccccc2c1Cn1ccnc1 | NRRL Y-27077 | 25 µg/mL |
| CCC(C)n1ncn(-c2ccc(N3CCN(c4ccc(OC[C@H]5CO[C@](Cn6cncn6)(c6ccc(Cl)cc6Cl)O5)cc4)CC3)cc2)c1=O | Isolate CA-4 | >8 µg/mL |
| CCC/C=C/C=C/C=C/C(=O)OCC1O[C@@H](OC2C(CO)O[C@]3(OCc4cc(O)cc(O)c43)[C@H](O)[C@H]2OC(=O)/C=C/C=C/CC(O)/C=C/C=C/C=C/CCC)[C@H](O)[C@@H](O)[C@H]1O | 83-2-14 | 0.1 µg/mL |